A mixed list of measured activities; the numbers were collected in NIAID ChemDB.

Shared fields: whole-cell or culture tests; organism: Mycobacterium tuberculosis

MIC bound comes from a single tested concentration.

structure	endpoint	dose	setting	strain	changes	read by	value
CCCN1CCN(c2nc(=O)c3cc(C(F)(F)F)cc(C(=O)O)c3s2)CC1	MIC			H37Rv		resazurin	0.0037 µg/mL
COc1cccc2c(Nc3ccc(S(=O)(=O)Nc4ccnn4-c4ccccc4)cc3)ccnc12	MIC			Strain 1 (MDR)			2 µg/mL
O=C1c2cc(Br)ccc2-n2c1nc1ccncc1c2=O	MIC			H37Rv			0.03 µg/mL
COC(c1ccccc1)c1c(-c2ccccc2)c(-c2ccccc2)n2ccc(C#N)cc12	EC50			H37Rv			<6.25 µg/mL
NC(=O)c1cnc(C(=O)c2ccccc2)cn1	inhibition	6.25 µg/mL		H37Rv		resazurin	8%
O=C(NNc1ccccc1)/C(=C/c1ccc2c(c1)OCO2)NC(=O)c1ccccc1	MIC bound			H37Rv		BACTEC	>12.5 µg/mL
Cc1cc(-c2cc3c(cc2F)c(=O)c(C(=O)O)cn3C2CC2)cc(C)n1	MBC			H37Rv			16 µg/mL
CN[C@@H]1[C@H](O[C@H]2[C@H](O[C@H]3[C@H](O)[C@@H](O)[C@H](N=C(N)N)[C@@H](O)[C@@H]3N=C(N)N)O[C@@H](C)[C@]2(O)C=O)O[C@@H](CO)[C@H](O)[C@H]1O	MIC50			ATCC 35820 (streptomycin-resistant)			≥100 µM
O=C1c2cc(Br)ccc2OP(=O)(c2ccccc2)N1c1ccc(C(F)(F)F)cc1	MIC		14 d	234/2005			1 µM
c1ccc(-c2c(C(c3ccccc3)n3ccnc3)cnn2-c2ccccc2)cc1	MIC90			ATCC 35828 (pyrazinamide-resistant)			>100 µM
CC[C@@H]1CCN[C@H](C(=O)NC(C2O[C@H](SC)[C@H](O)[C@@H](O)[C@H]2O)[C@H](C)Cl)C1	MIC			H37Rv		turbidity	>200 µg/mL
NC(=O)c1cnc(C(=O)c2ccccc2O)cn1	EC50			H37Rv		resazurin	>6.25 µg/mL
N#Cc1ccn2c(-c3ccccc3)c(-c3ccccc3)c(Cc3ccccc3)c2c1	EC50			H37Rv			>6.25 µg/mL
N#Cc1cnc(C(=O)c2ccccc2O)cn1	EC50			H37Rv		resazurin	>6.25 µg/mL
O=C(Nc1ccc(C(F)(F)F)cc1)c1cc(Br)ccc1OP(=O)(c1ccccc1)c1ccccc1	MIC		7 d	My 331/88			2 µM
Fc1ccccc1-c1c(C(c2ccccc2)n2ccnc2)cnn1-c1ccccc1	MIC90			ATCC 35828 (pyrazinamide-resistant)			≥100 µM
N#Cc1ccn2c(-c3ccccc3)c(-c3ccccc3)c(C=O)c2c1	EC50			H37Rv			>6.25 µg/mL
C[C@H]1COc2c(N3CCN(C)CC3)c(F)cc3c(=O)c(C(=O)O)cn1c23	MIC			RIF-R1	rpoB mutant rifampicin-resistant	resazurin	0.37 µg/mL
CC1(C)NC(=S)C(C)(C)N1N=O	MIC bound			H37Rv		BACTEC	>12.5 µg/mL
O=C(O)c1cc(C(F)(F)F)cc2c(=O)nc(N3CCN(CCCCOc4ccccc4)CC3)sc12	MIC			H37Rv		resazurin	0.0015 µg/mL
O=C1c2ccccc2C(=O)N1[N+](=O)[O-]	MIC bound			H37Rv		BACTEC	>12.5 µg/mL
O=C(NNc1cc(-c2ccccc2)nc2ccc(Cl)cc12)c1ccncc1	MIC			Strain 1 (MDR)			9 µg/mL
CCCCS(=O)(=O)Nc1ccc2[nH]c(CNC(C)=O)c(C)c2c1	MIC90			H37Rv		resazurin	>100 µM
O=S(=O)(Nc1ccnn1-c1ccccc1)c1ccc(Nc2ccnc3ccc(Cl)cc23)cc1	MIC			Strain 2 (MDR)			4 µg/mL
CN(Cc1cnc2nc(N)nc(N)c2n1)c1ccc(C(=O)N[C@@H](CCC(=O)O)C(=O)O)cc1	MIC			H37Rv		turbidity	≥200 µg/mL
O=[N+]([O-])c1cnc(Sc2cncc[n+]2[O-])s1	MIC			H37Rv		resazurin	0.78 µg/mL
COc1cccc2c(=O)n3c(nc12)C(=O)c1ccccc1-3	MIC			H37Rv			0.06 µg/mL
CC(=O)NCCc1nc(-c2nc(C(=O)NCCC(C)C)cs2)cs1	MIC			H37Rv		BACTEC	≥12.8 µg/mL
COc1ccc(C(O)c2c(-c3ccccc3)c(-c3ccccc3)n3ccc(C#N)cc23)cc1	EC50			H37Rv			<6.25 µg/mL
Cc1ccc2nc(-c3ccccc3)cc(NNC(=O)c3ccncc3)c2c1	MIC			Strain 1 (MDR)			>1 µg/mL
NC(=S)c1cnc(C(=O)c2ccc(O)cc2)cn1	inhibition	6.25 µg/mL		H37Rv		resazurin	21%
O=C1c2cc(Cl)ccc2OP(=O)(c2ccccc2)N1c1ccc(C(F)(F)F)cc1	MIC		14 d	Praha 1			1 µM
COC(=O)c1sc(-c2ccccc2)nc1OCc1cnnn1-c1cc2ccc(O)cc2oc1=O	MIC			H37Rv		resazurin	26.23 µM
CCCCC(=O)N/N=C/c1ccc(Cl)cc1	inhibition	12.5 µg/mL		H37Rv		BACTEC	25%
Nc1cccc(O)c1	MIC			Strain 1 (MDR)			0.5 µg/mL
N#CC(N=Nc1ccc2ccccc2c1)C(N)=O	MIC			H37Rv		BACTEC	≥12.5 µg/mL
COc1c(N2CCNC(C)C2)c(F)cc2c(=O)c(C(=O)O)cn(C3CC3)c12	MIC			H37Rv		turbidity	0.2 µg/mL
CC1=NN(C(=O)c2ccc(C)cc2)C(=O)C1N=Nc1ccccc1C(=O)O	MIC bound			H37Rv		BACTEC	>12.5 µg/mL
CCOc1ccc2cc(-n3nncc3COc3nc(-c4ccncc4)sc3C(=O)O)c(=O)oc2c1	MIC			H37Rv		resazurin	25.43 µM
NC(=O)c1cnc(C(=O)c2ccc(O)cc2)cn1	EC50			H37Rv		resazurin	>6.25 µg/mL
O=C(O)CSc1nc2c(Cl)c(Cl)c(Cl)cc2[nH]1	inhibition	6.25 µg/mL				resazurin	0%
CC1COc2c(N3CCN(C)CC3)c(F)cc3c(=O)c(C(=O)O)cn1c23	MIC			CDC1551		broth dilution	0.5 µg/mL
O=C(O)c1sc(-c2ccccc2)nc1OCc1cnnn1-c1cc2ccc(O)cc2oc1=O	MIC			H37Rv		resazurin	27.03 µM
NNC(=O)c1ccncc1	MIC			FQ-R1	gyrB mutant fluoroquinolone resistant	resazurin	0.088 µg/mL
O=C(NNc1cc(-c2ccccc2)nc2ccccc12)c1ccncc1	MIC			Strain 2 (MDR)			1 µg/mL
Fc1ccccc1-c1c(C(c2ccccc2)n2ccnc2)cnn1-c1ccccc1F	MIC90			ATCC 35837 (ethambutol-resistant)			≥100 µM
Cc1c[nH]c2ccc([N+](=O)[O-])cc12	MIC90			H37Rv		resazurin	>100 µM
N#Cc1ccn2c(-c3ccccc3)c(-c3ccccc3)c(-c3ccccc3)c2c1	EC50			H37Rv			>6.25 µg/mL
O=C(O)c1cc(C(F)(F)F)cc2c(=O)nc(N3CCN(CC4CCCCC4)CC3)sc12	MIC99			NTB1		resazurin	>100 µg/mL
CC(=O)NC[C@H]1CN(c2ccc(N3CCOCC3)c(F)c2)C(=O)O1	MIC			AZD5847-resistant 8.9	T460C Cys154Arg		16 µg/mL
c1ccc(C2OC3C4COC(O4)C3O2)cc1	MIC bound			H37Rv		BACTEC	>12.5 µg/mL
CCCCS(=O)(=O)Nc1ccc2[nH]c(C(=O)NC3CCCCC3)c(C)c2c1	MIC90			H37Rv		resazurin	3.13 µM
CCc1ccc2c(c1)C(=O)c1nc3ccncc3c(=O)n1-2	MIC			H37Rv			0.03 µg/mL
Clc1ccc(-c2c(C(c3ccccc3)n3ccnc3)cnn2-c2ccc(Cl)cc2Cl)cc1	MIC90			ATCC 35820 (streptomycin-resistant)			≥100 µM
CCN(CC)CCCNc1c(OC)cc(C)c2sc3ccccc3c(=O)c12.O=C(O)/C=C/C(=O)O	MIC bound			H37Rv		BACTEC	>12.5 µg/mL
CCc1ccc(-c2cc(CN3CCOCC3)c(C)n2-c2ccc(F)cc2)cc1	MIC			H37Rv			0.04 µM
NNC(=O)c1ccncc1	MIC			linezolid resistant 8.3	T460C Cys154Arg		0.06 µg/mL
COc1ccc2nc(-c3ccccc3)cc(NNC(=O)c3ccncc3)c2c1	MIC			Strain 1 (MDR)			5 µg/mL
CC[C@H]1OC(=O)[C@H](C)[C@@H](O[C@H]2C[C@@](C)(OC)[C@@H](O)[C@H](C)O2)[C@H](C)[C@@H](O[C@@H]2O[C@H](C)C[C@H](N(C)C)[C@H]2O)[C@](C)(O)C[C@@H](C)CN(C)[C@H](C)[C@@H](O)[C@]1(C)O	MIC			H37Rv		turbidity	>400 µg/mL
Cc1cc(=O)n2[nH]c(-c3ccc(Cl)cc3)nc2n1	MIC bound			H37Rv		resazurin	>6.25 µg/mL
O=Cc1sc(-c2cccnc2)nc1OCc1cnnn1-c1cc2ccc(O)cc2oc1=O	MIC			H37Rv		resazurin	27.93 µM
Clc1ccccc1C(c1ccccc1)(c1ccccc1)n1ccnc1	MIC90			ATCC 35828 (pyrazinamide-resistant)			≥100 µM
COC(=O)c1sc(-c2ccccn2)nc1OCc1cnnn1-c1cc2ccc(O)cc2oc1=O	MIC			H37Rv		resazurin	26.18 µM
CC(=O)Nc1nnc(-c2cc(=O)c3cc(Cl)ccc3o2)s1	MIC bound			H37Rv		BACTEC	>12.5 µg/mL
Clc1ccc(-c2c(C(c3ccccc3)n3ccnc3)cnn2-c2ccc(Cl)cc2)cc1	MIC90			ATCC 35820 (streptomycin-resistant)			≥100 µM
O=c1cc(-c2ccccc2)c2cc(Cl)ccc2o1	MIC90			H37Rv		low oxygen	>100 µg/mL
CCCCS(=O)(=O)Nc1ccc2[nH]c(C(=O)NC(C)C)c(C)c2c1	MIC90			H37Rv		resazurin	1.56 µM
CCOc1ccc2cc(-n3nncc3COc3nc(-c4ccccn4)sc3C=O)c(=O)oc2c1	MIC			H37Rv		resazurin	26.29 µM
CO[C@H]1/C=C/O[C@@]2(C)Oc3c(C)c(O)c4c(=O)c(c5oc6cc(N7CCN(CC(C)C)CC7)cc(=O)c6nc5c4c3=C2O)NC(=O)/C(C)=C\C=C\[C@H](C)[C@H](O)[C@@H](C)[C@@H](O)[C@@H](C)[C@H](OC(C)=O)[C@@H]1C	MIC			TN640			>32 µg/mL
N#Cc1ccn2c(-c3ccccc3)c(-c3ccccc3)cc2c1	EC50			H37Rv			>6.25 µg/mL
O=C1CSC(c2c(F)cccc2Cl)N1c1nncs1	MIC bound			H37Rv		BACTEC	>12.5 µg/mL
O=C1c2cc(OC(F)(F)F)ccc2-n2c1nc1ccncc1c2=O	MIC			H37Rv			0.008 µg/mL
NNC(=O)c1ccccc1SSc1ccccc1C(=O)NN	MIC			EMB-R			>12.5 µg/mL
Cc1ccc(-c2cc(CN3CCOCC3)c(C)n2-c2ccc(F)cc2)cc1	MIC			H37Rv DR9	V240M R735C		1.35 µM
O=C(O)c1cnccn1	MIC			T6790			480 µg/mL
Cc1c(O)n2ncnc2[nH]c1=O	MIC bound			H37Rv		resazurin	>6.25 µg/mL
O=C(Nc1ccccc1)c1ccccc1OP(=O)(c1ccccc1)c1ccccc1	MIC		7 d	My 331/88			62.5 µM
CCCCS(=O)(=O)Nc1ccc2[nH]c(C(=O)OCC)c(C)c2c1	MIC90			H37Rv		resazurin	0.19 µM
CCOC(=O)CNC(=O)C(=[N+]=[N-])C(=O)COc1ccccc1	inhibition	12.5 µg/mL		H37Rv		BACTEC	9%
O=C(Nc1ccc(C(F)(F)F)cc1)c1cc(Cl)ccc1OP(=O)(c1ccccc1)c1ccccc1	MIC		14 d	Praha 1			1 µM
CCc1ccc(-n2c(-c3ccc(Cl)cc3)cc(CN3CCOCC3)c2C)cc1	MIC90			H37Rv			16.83 µM
COC(=O)C1=CO[C@@H](C)[C@H]2Cn3ccc4c5ccccc5nc-4c3C[C@H]12	MIC			H37Rv		BACTEC	≥12.5 µg/mL
NC(=S)c1cnc(C(=O)c2ccccc2)cn1	inhibition	6.25 µg/mL		H37Rv		resazurin	39%
CC(=O)N1CCN(c2ccc(OC[C@H]3CO[C@](Cn4ccnc4)(c4ccc(Cl)cc4Cl)O3)cc2)CC1	inhibition	6.25 µg/mL		H37Rv		resazurin	94%
Fc1ccc(-c2c(C(c3ccccc3)n3ccnc3)cnn2-c2ccc(F)cc2)cc1	MIC90			ATCC 27294			≥100 µM
CC1=NN(C(=O)c2ccncc2)C(=O)C1N=Nc1ccc(S(=O)(=O)N=C(N)N)cc1	MIC bound			H37Rv		BACTEC	>12.8 µg/mL
O=C(O)c1cc(C(F)(F)F)cc2c(=O)nc(N3CCN(C4CCCCC4)CC3)sc12	MIC			H37Rv		resazurin	0.00075 µg/mL

Repeating the first 7 entries:

structure,endpoint,dose,setting,strain,changes,read by,value
CCCN1CCN(c2nc(=O)c3cc(C(F)(F)F)cc(C(=O)O)c3s2)CC1,MIC,,,H37Rv,,resazurin,0.0037 µg/mL
COc1cccc2c(Nc3ccc(S(=O)(=O)Nc4ccnn4-c4ccccc4)cc3)ccnc12,MIC,,,Strain 1 (MDR),,,2 µg/mL
O=C1c2cc(Br)ccc2-n2c1nc1ccncc1c2=O,MIC,,,H37Rv,,,0.03 µg/mL
COC(c1ccccc1)c1c(-c2ccccc2)c(-c2ccccc2)n2ccc(C#N)cc12,EC50,,,H37Rv,,,<6.25 µg/mL
NC(=O)c1cnc(C(=O)c2ccccc2)cn1,inhibition,6.25 µg/mL,,H37Rv,,resazurin,8%
O=C(NNc1ccccc1)/C(=C/c1ccc2c(c1)OCO2)NC(=O)c1ccccc1,MIC bound,,,H37Rv,,BACTEC,>12.5 µg/mL
Cc1cc(-c2cc3c(cc2F)c(=O)c(C(=O)O)cn3C2CC2)cc(C)n1,MBC,,,H37Rv,,,16 µg/mL

Inhibition is in % at the dose shown (toxicity tests: loss of growth or viability). ECn is the concentration giving n% inhibition of infection, replication or growth. Blank or dashed fields: not listed here. MIC50, MIC90 and the like: level of inhibition, or share of isolates inhibited. Neighbouring rows are from separate reports.